# Measured values: paper PMC3114464 (Biochemistry, 2011)
# B1: IsdB-N2 M362L variant (domain or fragment)
# chain: not shown
# Target: T1, IsdA-N1 (NEAT domain of IsdA), apo form (S. aureus, UniProt Q7A655 62-184)
# T1 sequence (looked up): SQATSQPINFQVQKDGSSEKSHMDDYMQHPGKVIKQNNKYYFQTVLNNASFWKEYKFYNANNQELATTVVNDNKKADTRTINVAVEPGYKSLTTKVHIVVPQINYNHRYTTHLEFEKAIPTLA
# Experiment: stopped-flow spectroscopy of heme transfer
binder,measurement,value
B1,Kd,16.5 µM
